# Percent effect of library compounds

Each number is a percent effect as filed.
The record does not define 0% and 100%; most values in the screen are far below 50% and negative numbers occur (in some assays of this library far below -100).
The entries come from a sample that favours strong results.
A dash means the value is not listed here; it may have been measured.

A: 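Whole-cell growth test on Mycobacterium tuberculosis, read after 3 days in glucose-containing 7H9 medium; the read-out is not stated. Concentration: 500 µM. Direction is inferred from retests: higher values go with more growth inhibition. About 18,000 compounds were tested under these conditions; 7.9% (about 1,400) showed 50% or more at least once.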
B: 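Phenotypic screen: M. tuberculosis growth, cholesterol and DPPC medium, 4 days; the read-out is not stated. Concentration: 500 µM. The record gives no direction; compounds that gave an IC50 in retests scored well above the rest, so higher reads as more growth inhibition. Size under these conditions: about 18,000 compounds, about 900 of them at 50% or above in at least one test.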

| # | SMILES | A | B |
|---|---|---|---|
| 1 | `Cn1cc(-c2csc(NC3CCOCC3)n2)cn1` | 31.05% | - |
| 2 | `CCOC(C)c1nc(CNC)cs1` (centres unmarked) | - | 15.81% |
| 3 | `CNCc1csc(C(C)(C)O)n1` | -10.22% | - |
| 4 | `Clc1cnccc1CN1CCC2(CC1)OCCO2` | 35.64% | - |
| 5 | `CNc1cnc(C#N)cn1` | 6.999% | - |
| 6 | `Cc1ccncc1N1CCNCC1` | - | 1.029% |
| 7 | `CC(=O)c1cccc(S(=O)(=O)N(C)CC(=O)N(C)C)c1` | 0.1184% | -12.55% |
| 8 | `O=C(Nc1ccncc1)NC1CCS(=O)(=O)C1` (centres unmarked) | 8.848% | - |
| 9 | `O=C(NCCN1CCCC1)c1ccco1` | 6.779% | - |
| 10 | `Nc1nnc(SCCC(=O)Nc2ccc(Cl)cn2)s1` | - | 3.798% |
| 11 | `CNC(=O)CCN(C)C(=O)C(C)Oc1ccccc1Br` (centres unmarked) | - | -7.78% |
| 12 | `c1ccc(Oc2cccc(NCc3csnn3)c2)nc1` | 64.56% | - |
| 13 | `CCC[C@H]1CN(C(=O)c2cnc(C)nc2)C[C@@H]1N` | 7.465% | - |
| 14 | `COc1ccc(CCCN2CCNC(=O)CC2)cc1F` | - | 11.83% |
| 15 | `Cc1cccc(CS(=O)(=O)NCc2ccncc2)c1` | 43.67% | - |
| 16 | `NC(CN1CCOCC1)c1ccccc1` (centres unmarked) | 56.09% | 31.44% |
| 17 | `Cn1ncc(C#N)c1N` | 12.72% | - |
| 18 | `CC1(C)CC(CN)CCO1` (centres unmarked) | 5.983% | - |
| 19 | `COC(=O)CC1CNc2ccccc21` (centres unmarked) | - | 11.26% |
| 20 | `CC(C)c1cccc(S(=O)(=O)N(C)Cc2nnc[nH]2)c1` | 51.11% | - |
| 21 | `NCc1ccnc(NC2CC2)c1` | 11.17% | - |
| 22 | `COc1cc(OC)c(NC(=O)N(C)C)cc1Cl` | 15.01% | - |
| 23 | `CCCC(N)C(=O)N(CC)Cc1ccoc1` (centres unmarked) | 3.653% | - |
| 24 | `CCO[C@H]1CN(Cc2snnc2C(C)C)C[C@@H]1O` | - | 1.784% |
| 25 | `CCOCC(=O)NCC(O)c1cccc(C(F)(F)F)c1` (centres unmarked) | 60.06% | - |
| 26 | `NCCNC(=O)CCCc1ccccc1` | 12.14% | -4.895% |
| 27 | `CCCOc1cc(C)ccc1NC(=O)Cn1cnnn1` | - | 56.13% |
| 28 | `Fc1cccnc1NCc1cc[nH]n1` | 15.15% | 4.762% |
| 29 | `Cc1ccnc(CCO)n1` | - | 5.075% |
| 30 | `CN1CC2(CCN(CCOCCO)CC2)OC1=O` | - | 9.466% |
| 31 | `CC(=O)NCCNC(=O)CN(CC1CCOC1)C1CC1` (centres unmarked) | -2.606% | - |
| 32 | `O=C(NCc1ccc(Br)o1)[C@@H]1CCCO1` | 62.05% | - |
| 33 | `Cc1ccc(F)cc1CN1C(=O)CC(C)C1=O` (centres unmarked) | -5.427% | - |
| 34 | `CN(C)C(=O)c1cccc(N)n1` | -4.982% | - |
| 35 | `CN(C)c1ccncc1N` | - | 0.687% |
| 36 | `COC(=O)CSc1ccccc1C(=O)OC` | - | 27.52% |
| 37 | `COc1ccc(-c2nc(CN)cs2)cc1` | 29.1% | - |
| 38 | `CCNC(=O)C(C)OC(=O)c1[nH]c(C)c(C(C)=O)c1C` (centres unmarked) | -0.6634% | -11.67% |
| 39 | `Cn1ccc(C(=O)Nc2sc3c(c2C(N)=O)CCC3)n1` | 3.018% | - |
| 40 | `CSc1ccc(NC(=O)NCCCNC(C)=O)cc1` | 14.52% | -0.9324% |
| 41 | `COC(C)C(=O)N(C)c1ncc(Cl)cc1Cl` (centres unmarked) | 9.429% | 8.976% |
| 42 | `Cc1cccc(CN2CCC3(CC2)[C@H](O)C[C@@H]3O)c1` | 8.65% | - |
| 43 | `CC(C)(C)CC(CO)NC(=O)c1ccon1` (centres unmarked) | 13.47% | - |
| 44 | `CC(C)CC1CCN(S(N)(=O)=O)C1` (centres unmarked) | 51.74% | 47.06% |
| 45 | `CSc1cc(NC(=O)NCCc2ccccn2)ccn1` | 65.49% | 60.08% |
| 46 | `NCC(CO)Cc1cccc(F)c1` (centres unmarked) | 19.88% | - |
| 47 | `CCC(=O)N[C@H]1CCCNC1` | - | -1.736% |
| 48 | `CCN(c1ccc(C(=O)NC[C@H](C)O)cc1)C(C)C` | 38.59% | - |
| 49 | `CC(C)(C)CC(=O)NCC(=O)N1CCOC(C)(C)C1` | - | -5.88% |
| 50 | `N#Cc1ccccc1C(=O)N1CCOC2(CCCC2)C1` | 31.09% | - |
| 51 | `CCNC(=O)C1CCN(Cc2cc(C)no2)CC1` | 1.978% | - |
| 52 | `COc1cccc(OC2CN(C(=O)[C@@H](N)CO)C2)c1` | 2.368% | - |
| 53 | `CCN(CC)CCCN1CCOC2(CCOCC2)C1` | 0.6609% | - |

Some entries from above, unchanged:

- Cn1ccc(C(=O)Nc2sc3c(c2C(N)=O)CCC3)n1 | A: 3.018%
- Cc1ccncc1N1CCNCC1 | B: 1.029%
- CCO[C@H]1CN(Cc2snnc2C(C)C)C[C@@H]1O | B: 1.784%
- COc1cccc(OC2CN(C(=O)[C@@H](N)CO)C2)c1 | A: 2.368%
- Nc1nnc(SCCC(=O)Nc2ccc(Cl)cn2)s1 | B: 3.798%
- CC(C)(C)CC(=O)NCC(=O)N1CCOC(C)(C)C1 | B: -5.88%
- CC1(C)CC(CN)CCO1 (centres unmarked) | A: 5.983%

Source: ChEMBL document CHEMBL3988442, “University of Dundee, Small-Polar-MMV Screening Library” (2021).